Data source: PubChem BioAssay AID1224833 (University of Georgia, 2016)
This is one part, drawn at random, of about 12,000 reagents. About 5,600 of them (46%) count as active. 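Active calls cover z-scores past 1 in both directions, so they include lowered as well as raised rotavirus replication.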 Entries without a mark were called inactive.

Assay: 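Host factors restraining rotavirus as candidate antiviral genes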 (primary screen)
Cells: monkey MA104 kidney cells
Reagent: siRNA pool against human genes, 50 nM
Timing: 48 h knock-down before infection; read 24 h after infection
Conditions: infection with rotavirus strain RV3 two days after transfection; infectious dose for this stage not given
Measured: 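Rotavirus antigen per well by fluorescent immunoassay, normalised to non-targeting control wells on each plate and given as a standard z-score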
Scale: z-score vs non-targeting control: higher = more rotavirus replication than with non-targeting control
Call rule: In these data the active calls have z-score vs non-targeting control at about -1 or lower, or at about 1 or higher
Meaning of the calls: active = z-score beyond 1 either way; inactive = z-score within 1 of zero

| gene | z-score vs non-targeting control |
| --- | --- |
| HOXB4 | -1.81 (active) |
| HBG2 | -1.72 (active) |
| ZNF621 | -1.37 (active) |
| IFTAP | -2.1 (active) |
| THUMPD1 | -0.969 |
| DDHD1 | -0.52 |
| RIPOR1 | 0.842 |
| TTLL4 | -0.569 |
| KDM3A | -2.06 (active) |
| ZNF558 | -0.928 |
| SYCP2 | -1.05 (active) |
| HNF4A | 0.53 |
| SMARCE1 | -0.666 |
| TST | 0.814 |
| GIMAP8 | -1.55 (active) |
| TRIT1 | -2.05 (active) |
| NCKAP5 | 0.354 |
| ZNF564 | -0.0667 |
| KBTBD8 | -1.37 (active) |
| ZNF335 | -1.06 (active) |
| TM9SF3 | 0.516 |
| DOP1A | -0.765 |
| DNAJB3P | -1.21 (active) |
| SEMA3A | -0.13 |
| UBD | -1.04 (active) |
| PCDHB15 | 1.48 (active) |
| SH3BGR | -0.541 |
| RPS19 | -0.909 |
| SYNC | -0.286 |
| C16orf90 | 0.898 |
| UQCRFS1 | 0.868 |
| PDE9A | -2.58 (active) |
| ALDOC | 1.76 (active) |
| RRP1 | -0.215 |
| ZNF354B | -0.0325 |
| RFC1 | -0.936 |
| RGPD5 | -0.872 |
| AP1AR | 1.03 (active) |
| HMOX2 | -2.98 (active) |
| CNOT6L | -2.82 (active) |
| PCYOX1 | 1.15 (active) |
| SMAD5 | -0.928 |
| SDE2 | -1.35 (active) |
| MRPL54 | 0.789 |
| WWP1 | -1.08 (active) |
| TMEM129 | -1.29 (active) |
| ELOC | -1.3 (active) |
| TBC1D25 | -0.204 |
| ENY2 | -1.83 (active) |
| GTF3C2 | -0.765 |
| APTX | 1.67 (active) |
| SLC7A14 | 0.861 |
| ZBTB33 | -0.0199 |
| PDE1B | 0.876 |
| KRT72 | -0.0236 |
| RAE1 | -0.773 |
| ETV6 | -1.98 (active) |
| GPN2 | -0.757 |
| RAB28 | 1.35 (active) |
| VSNL1 | -1.37 (active) |
| HMGB1 | 0.542 |
| SBF2 | 0.64 |
| SGSH | 0.868 |
| MC2R | -1.59 (active) |
| SGCA | 0.59 |
| TMEM120A | 0.153 |
| PTBP1 | -0.999 |
| CXCR6 | -0.597 |
| SHISA4 | -2.93 (active) |
| GCFC2 | -0.674 |
| WFDC11 | -1.81 (active) |
| GEMIN7 | -0.756 |
| GFPT1 | -2.65 (active) |
| DRC7 | 0.455 |
| CARD17P | -0.223 |

Laid out differently: entries from further up.
gene	z-score vs non-targeting control
RAB28	1.35 (active)
VSNL1	-1.37 (active)
HMGB1	0.542
SBF2	0.64
SGSH	0.868
MC2R	-1.59 (active)
SGCA	0.59
TMEM120A	0.153
PTBP1	-0.999
CXCR6	-0.597
